A mixed list of measured activities; the numbers were collected in NIAID ChemDB.

All rows: growth or infection tests; agent: Toxoplasma gondii

Neighbouring rows are from separate reports. ECn: concentration that inhibits the pathogen or its effect by n%. An empty or dashed field is not shown.

smiles,cells,strain or isolate,endpoint,method,value
CC1=C(C(=O)NCc2ccc(F)cc2)OC2OC3(C)CC[C@H]4[C@H](C)CC[C@@H]1[C@@]24OO3,HFF,2F,EC50,β-galactosidase,0.65 µM
Nc1ccc(S(=O)(=O)Nc2ncccn2)cc1,-,-,EC50,-,298 µM
COc1c(N2C[C@@H]3C(N)[C@@H]3C2)c(F)cc2c(=O)c(C(=O)O)cn(C3CC3)c12,MRC-5,RH,EC50,-,2.1 µM
Nc1ccc(S(=O)(=O)Nc2cc(Cl)cc(Cl)c2)cc1,-,-,EC50,-,37 µM
C=C1CC[C@H](O)C/C1=C/C=C1\CCC[C@]2(C)[C@@H]([C@H](C)CCCC(C)C)CC[C@@H]12,-,RH,EC50,-,<0.1 µM
Cc1c(O)cccc1C(=O)N[C@@H](CSc1ccccc1)[C@H](O)CN1C[C@H]2CCCC[C@H]2C[C@H]1C(=O)NC(C)(C)C,MRC-5,RH,EC50,-,4 µg/mL
CCOC(=O)C1C(c2ccccc2)CC(c2ccc(OC)cc2)=CC12NCCN2,HFF,RH,EC50,-,0.0097 µM
OCCOCCN1CCN(C2=Nc3ccccc3Sc3ccccc32)CC1,HFF,-,EC50,-,18.6 µg/mL
CC1=C(C(=O)NCc2cc(F)cc(F)c2)OC2OC3(C)CC[C@H]4[C@H](C)CC[C@@H]1[C@@]24OO3,HFF,2F,EC50,β-galactosidase,0.47 µM
COc1cc(Cc2cnc(N)nc2N)cc(OC)c1OC,-,-,EC50,-,0.008 µM
CC[C@@]1(C)NC(=O)[C@H](CCCCCC(=O)[C@H](C)OC(C)=O)NC(=O)[C@H]2C[C@H](C)CN2C(=O)C(Cc2ccccc2)NC1=O,HFF,RH,EC50,-,0.0102 µM
CCc1nc(N)nc(N)c1-c1ccc(Cl)cc1,-,-,EC50,MTS,19.7 µM
Nc1ccc(S(=O)(=O)Nc2ncccn2)cc1,-,RH,EC50,ELISA,7.3 µg/mL
CCOC(=O)C1C(c2ccc(OC)cc2)CC(c2ccccc2)=CC12NCCN2,HFF,RH,EC50,-,0.0097 µM
C=C(C)CN(CC)c1c([N+](=O)[O-])cc(C(F)(F)F)cc1[N+](=O)[O-],-,Oryzalin-resistant,EC50,-,5 µM
C/C(=C\Cc1ccccc1)CCC[C@H](C)C[C@]1(C)C[C@@]2(C)OC(=O)C[C@H]2OO1,HFF,RH,EC50,-,<10 µM
CCC(=O)CCCCC[C@@H]1NC(=O)[C@H]2CCCCN2C(=O)[C@H](C(C)CC)NC(=O)[C@H](Cc2c[nH]c3ccccc23)NC1=O,-,-,MIC,-,0.015 µg/mL
CC[C@]1(C)NC(=O)[C@H](CCCCCC(=O)[C@H](C)O)NC(=O)[C@H]2C[C@H](C)CN2C(=O)C(Cc2ccccc2)NC1=O,HFF,RH,EC50,-,0.0097 µM
Nc1ccc(S(=O)(=O)Nc2ncccn2)cc1,-,-,EC50,-,<2 µg/mL
COC(=O)C1=C(C)[C@@H]2CC[C@@H](C)[C@@H]3CC[C@]4(C)OO[C@@]23[C@H](O1)O4,HFF,-,EC50,β-galactosidase,2.9 µM
COc1c(N2C[C@@H]3C(N)[C@@H]3C2)c(F)cc2c(=O)c(C(=O)O)cn(-c3ccc(F)cc3F)c12,MRC-5,RH,EC50,-,32 µM
CO[C@@H]1C(=O)OC[C@H](C)[C@H](C)/C=C(\C)C[C@H](C)C(=O)N[C@@H](C)C(=O)N(C)[C@H](Cc2c[nH]c3ccccc23)C(=O)N[C@H]1c1ccc(C(N)=O)cc1,Human foreskin fibroblasts,-,EC50,-,≥45 µM
O=C1C2=C(C(=O)c3ccccc31)[C@H]1Oc3ccccc3[C@H]1CO2,Fibroblastic LLC-MK2,-,EC50,-,2.5 µM
CC1NC(=O)C(C)NC(=O)C2CCCN2C(=O)C(CCCCCC(=O)CCO)NC1=O,-,-,MIC,-,>1 µg/mL
CCOC(=O)C1C(c2ccc(C)cc2)CC(c2ccccc2)=CC12NCCN2,HFF,RH,EC50,-,0.0097 µM
COC(=O)Nc1nc2ccc(C(=O)c3cccs3)cc2[nH]1,-,RH,EC50,-,<10 µM
CCCN(CCC)c1c([N+](=O)[O-])cc(C(F)(F)F)cc1[N+](=O)[O-],Fibroblast,-,EC50,-,0.3 µM
Oc1cccc2c1[nH]c1c(C3=C[C@]4(O)C/C=C/CCCCCN5CC[C@@H]3[C@]3(C[C@@H]6/C=C\CCCCN6C34)C5)nccc12,HFF,-,EC50,-,<1 µM
O=Nc1c(-c2c(O)[nH]c3cc(Cl)ccc23)[nH]c2ccccc12,HFF,ATCC 50839,EC50,-,0.06 µg/mL
CC1=C(C(=O)NCc2ccc(C(F)(F)F)cc2)OC2OC3(C)CC[C@H]4[C@H](C)CC[C@@H]1[C@@]24OO3,HFF,2F,EC50,β-galactosidase,0.51 µM
C/C1=C\[C@H](C)C[C@H](C)OC(=O)C[C@H](c2ccc(O)cc2)NC(=O)[C@@H](Cc2c(Br)[nH]c3ccccc23)N(C)C(=O)[C@H](C)NC(=O)[C@H](C)C1,-,RH,EC50,-,>5 µM
Cc1ccc2[nH]c(O)c(C3=Nc4ccccc4C3=O)c2c1,HFF,ATCC 50839,EC50,-,>320 µg/mL
CC[C@H]1OC(=O)[C@H](C)C(=O)[C@H](C)[C@@H](O[C@@H]2O[C@H](C)C[C@H](N(C)C)[C@H]2O)[C@](C)(OC)C[C@@H](C)C(=O)[C@H](C)[C@H]2N(NCCCc3ccnc4ccccc34)C(=O)O[C@]12C,HFF,RH,EC50,-,≤0.05 µg/mL
CC1(C)N=C(N)N=C(N)N1OCCCOc1cc(Cl)c(Cl)cc1Cl,-,RH,EC50,-,0.05 µM
NC(=O)N1c2ccccc2C=Cc2ccccc21,HFF,-,EC50,-,72 µg/mL
O=C1C(c2c(O)[nH]c3ccc(F)cc23)=Nc2ccccc21,HFF,ATCC 50839,EC50,-,>320 µg/mL
CCCCCCCCCCCCc1c(C)c(=O)c2ccccc2n1O,-,-,EC50,-,0.004 µM

For reference, 2 entries again:

smiles,cells,strain or isolate,endpoint,method,value
C/C1=C\[C@H](C)C[C@H](C)OC(=O)C[C@H](c2ccc(O)cc2)NC(=O)[C@@H](Cc2c(Br)[nH]c3ccccc23)N(C)C(=O)[C@H](C)NC(=O)[C@H](C)C1,-,RH,EC50,-,>5 µM
CCOC(=O)C1C(c2ccc(C)cc2)CC(c2ccccc2)=CC12NCCN2,HFF,RH,EC50,-,0.0097 µM